For at least one entry, the source does not settle the construct or the ends of the probe. Negatives hold for the conditions tested. For some assays here: At least one verdict was read from the data and is not stated in words by the source. For some assays here: Where a protein sequence is shown, tags need not be part of it.
Columns and labels:
[1] = molecular target: T1, TbmtHMG44 (MBP cleaved off by TEV) (Trypanosoma brucei) (UniProt A0A1G4IA56); assay: EMSA; details: TEV protease present
T1 sequence (looked up, limits assumed): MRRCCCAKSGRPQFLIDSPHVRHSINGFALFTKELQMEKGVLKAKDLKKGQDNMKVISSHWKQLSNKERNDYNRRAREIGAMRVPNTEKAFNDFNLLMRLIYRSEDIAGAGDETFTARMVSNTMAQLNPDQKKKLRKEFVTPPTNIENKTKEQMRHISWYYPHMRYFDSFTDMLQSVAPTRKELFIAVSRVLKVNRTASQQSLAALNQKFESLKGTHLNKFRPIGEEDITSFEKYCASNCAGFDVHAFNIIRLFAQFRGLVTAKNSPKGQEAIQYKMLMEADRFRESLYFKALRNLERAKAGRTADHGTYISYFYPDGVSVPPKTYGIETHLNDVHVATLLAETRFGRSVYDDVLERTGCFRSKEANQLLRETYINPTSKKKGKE

[2] = system: MBP-TbmtHMG44 (MBP-5020) (Trypanosoma brucei); assay: EMSA

Sequence: GAAAAAACGGAAAATCTTATGGGCGTGCAAAAATACACATACACAAATCCCGTGCTTATTTTAGGCCATTTTT (double strand) [73 bp conserved minicircle sequence]
- binding result [1]: no binding
- binding result [2]: no binding

— article doi:10.1101/2020.07.22.215871
